Reference: PubChem BioAssay AID1224833 (University of Georgia, 2016)
The whole screen tested about 12,000 reagents; shown is a part drawn at random. Over the whole deposit, about 5,600 (46%) were called active. 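Active calls cover z-scores past 1 in both directions, so they include lowered as well as raised rotavirus replication.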 A number with no mark means an inactive call. Reagent sequences are not shown.

Test: 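Human genes whose knock-down alters rotavirus replication in monkey cells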 (primary screen)
Cell system: monkey MA104 kidney cells
Knock-down reagent: siRNA pool against human genes, 50 nM
Duration: 48 h knock-down before infection; read 24 h after infection
Treatment: infection with rotavirus strain RV3 two days after transfection; infectious dose for this stage not given
Measured: 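Rotavirus antigen per well by fluorescent immunoassay, normalised to non-targeting control wells on each plate and given as a standard z-score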
Scale: z-score vs non-targeting control: higher = more rotavirus replication than with non-targeting control
Call rule: In these data the active calls have z-score vs non-targeting control at about -1 or lower, or at about 1 or higher
Calls: active = z-score beyond 1 either way; inactive = z-score within 1 of zero

Silencing of PHOX2A (paired like homeobox 2A) gave: z-score vs non-targeting control -1.23 (active).
For RHPN2 (rhophilin Rho GTPase binding protein 2), the entry reads z-score vs non-targeting control 0.0343.
Knock-down of TMC6 (transmembrane channel like 6) resulted in: z-score vs non-targeting control 0.556.
Against CHTF8 (chromosome transmission fidelity factor 8) the deposit lists z-score vs non-targeting control 0.877.
Against ECM2 (extracellular matrix protein 2), the values are z-score vs non-targeting control -0.761.
After knock-down of ACHE (acetylcholinesterase (Yt blood group)) the results were z-score vs non-targeting control 1.46 (active).
Silencing of ZC3H12B (zinc finger CCCH-type containing 12B) resulted in: z-score vs non-targeting control 1.27 (active).
After knock-down of NHLRC3 (NHL repeat containing 3), the record shows z-score vs non-targeting control 2.22 (active).
Silencing of AJUBA (ajuba LIM protein) resulted in: z-score vs non-targeting control -1.28 (active).
After knock-down of TNFSF15 (TNF superfamily member 15), the screen gave z-score vs non-targeting control -0.421.
Knock-down of OR10K1 (olfactory receptor family 10 subfamily K member 1) gave: z-score vs non-targeting control -1.8 (active).
With knock-down of USP34 (ubiquitin specific peptidase 34), the screen gave z-score vs non-targeting control 0.798.
Knock-down of CCL3L1 (C-C motif chemokine ligand 3 like 1) came out at: z-score vs non-targeting control -0.0497.
Depletion of CLDN19 (claudin 19) resulted in: z-score vs non-targeting control -1 (active).
ARHGEF10L (Rho guanine nucleotide exchange factor 10 like) showed z-score vs non-targeting control 2.33 (active).
GFAP (glial fibrillary acidic protein) showed z-score vs non-targeting control 1.99 (active).
After knock-down of ZNF624 (zinc finger protein 624) the results were z-score vs non-targeting control -0.44.
With knock-down of PIGH (phosphatidylinositol glycan anchor biosynthesis class H) the results were z-score vs non-targeting control -1.78 (active).
With knock-down of METTL17 (methyltransferase like 17), the record shows z-score vs non-targeting control 1.17 (active).
ERMARD (ER membrane associated RNA degradation) gave z-score vs non-targeting control 0.076.
AXDND1 (axonemal dynein light chain domain containing 1) showed z-score vs non-targeting control -0.983.
Knock-down of OR52K2 (olfactory receptor family 52 subfamily K member 2) resulted in: z-score vs non-targeting control 1.51 (active).
GCNT2 (glucosaminyl (N-acetyl) transferase 2 (I blood group)) showed z-score vs non-targeting control 0.967.

Records listed above with an active call, once more:
PHOX2A (paired like homeobox 2A) → z-score vs non-targeting control = -1.23 (active)
ACHE (acetylcholinesterase (Yt blood group)) → z-score vs non-targeting control = 1.46 (active)
ZC3H12B (zinc finger CCCH-type containing 12B) → z-score vs non-targeting control = 1.27 (active)
NHLRC3 (NHL repeat containing 3) → z-score vs non-targeting control = 2.22 (active)
AJUBA (ajuba LIM protein) → z-score vs non-targeting control = -1.28 (active)
OR10K1 (olfactory receptor family 10 subfamily K member 1) → z-score vs non-targeting control = -1.8 (active)
CLDN19 (claudin 19) → z-score vs non-targeting control = -1 (active)
ARHGEF10L (Rho guanine nucleotide exchange factor 10 like) → z-score vs non-targeting control = 2.33 (active)
GFAP (glial fibrillary acidic protein) → z-score vs non-targeting control = 1.99 (active)
PIGH (phosphatidylinositol glycan anchor biosynthesis class H) → z-score vs non-targeting control = -1.78 (active)
METTL17 (methyltransferase like 17) → z-score vs non-targeting control = 1.17 (active)
OR52K2 (olfactory receptor family 52 subfamily K member 2) → z-score vs non-targeting control = 1.51 (active)

Additional reagents follow:
Knock-down of CCER1 (coiled-coil glutamate rich protein 1) resulted in: z-score vs non-targeting control 0.759.
After knock-down of TMC4 (transmembrane channel like 4), the screen gave z-score vs non-targeting control -0.347.
Against TMEM201 (transmembrane protein 201), the entry reads z-score vs non-targeting control -0.551.
PKNOX2 (PBX/knotted 1 homeobox 2) gave z-score vs non-targeting control -0.223.
Against CCL3L3 (C-C motif chemokine ligand 3 like 3), the entry reads z-score vs non-targeting control -0.0497.
For TMEM121 (transmembrane protein 121) the deposit lists z-score vs non-targeting control -0.821.
Knock-down of ST3GAL5 (ST3 beta-galactoside alpha-2,3-sialyltransferase 5) came out at: z-score vs non-targeting control 1.21 (active).
After knock-down of LRIT1 (leucine rich repeat, Ig-like and transmembrane domains 1), the screen gave z-score vs non-targeting control -0.2.
Depletion of KLHDC8B (kelch domain containing 8B) gave: z-score vs non-targeting control -0.616.
Against ZFYVE28 (zinc finger FYVE-type containing 28) the deposit lists z-score vs non-targeting control -1.43 (active).
RTF2 (replication termination factor 2) scored z-score vs non-targeting control -0.57.
Against CCR3 (C-C motif chemokine receptor 3) the deposit lists z-score vs non-targeting control 1.64 (active).
After knock-down of SCX (scleraxis bHLH transcription factor), the record shows z-score vs non-targeting control 0.841.
After knock-down of SI (sucrase-isomaltase) the results were z-score vs non-targeting control 1.61 (active).
With knock-down of SMARCC1 (SWI/SNF related BAF chromatin remodeling complex subunit C1), the screen gave z-score vs non-targeting control 1.47 (active).
With knock-down of PDCD5 (programmed cell death 5), the screen gave z-score vs non-targeting control -0.121.
Depletion of FHIP2A (FHF complex subunit HOOK interacting protein 2A) resulted in: z-score vs non-targeting control 1.47 (active).
Depletion of GPRASP3 came out at: z-score vs non-targeting control 0.627.
With knock-down of LAT (linker for activation of T cells) the results were z-score vs non-targeting control -0.735.
STAC (SH3 and cysteine rich domain) showed z-score vs non-targeting control -2.84 (active).
After knock-down of SLCO3A1 the results were z-score vs non-targeting control -3.26 (active).
For TAP2 (transporter 2, ATP binding cassette subfamily B member), the values are z-score vs non-targeting control -0.595.
Depletion of HSPA12B (heat shock protein family A (Hsp70) member 12B) gave: z-score vs non-targeting control 0.611.
With knock-down of POTEE (POTE ankyrin domain family member E) the results were z-score vs non-targeting control -1.05 (active).
Knock-down of RFLNA (refilin A) resulted in: z-score vs non-targeting control 1.26 (active).
After knock-down of CFHR1 (complement factor H related 1), the screen gave z-score vs non-targeting control -0.177.
VPREB3 (V-set pre-B cell surrogate light chain 3) showed z-score vs non-targeting control -0.717.
With knock-down of ARL5A (ARF like GTPase 5A) the results were z-score vs non-targeting control 1.14 (active).
Knock-down of KIRREL2 (kirre like nephrin family adhesion molecule 2) came out at: z-score vs non-targeting control 0.116.
For GSG1L (GSG1 like), the values are z-score vs non-targeting control -0.751.
After knock-down of BAGE4 (BAGE family member 4), the record shows z-score vs non-targeting control 0.875.
Knock-down of KRT84 (keratin 84) came out at: z-score vs non-targeting control 0.712.
After knock-down of ORAI2 (ORAI calcium release-activated calcium modulator 2), the record shows z-score vs non-targeting control -2.58 (active).
C1QTNF2 (C1q and TNF related 2) scored z-score vs non-targeting control -0.786.
CCDC59 (coiled-coil domain containing 59) gave z-score vs non-targeting control -0.0001.
For SOX9 (SRY-box transcription factor 9), the entry reads z-score vs non-targeting control 1.14 (active).
Against ATXN10 (ataxin 10), the values are z-score vs non-targeting control -0.741.
